# PubChem BioAssay AID504761, Drosophila RNAi Screening Center, 2011
# Assay: 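Fly genes whose silencing reduces dengue virus type 2 infection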 (primary screen)
# Cells: D.Mel-2 cells from Drosophila
# Reagents: long dsRNA against Drosophila genes
# Conditions: infection with dengue virus type 2; dose and infection time not stated
# Detection: 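Cells stained for dengue envelope protein and imaged; percent of infected cells per well on duplicate plates, ranked by infection, with stained nuclei counted for cell number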
# Reading the numbers: infection score: higher = more virus-infected cells; cell count: higher = more cells in the well
# Rule for the call: 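Low infection ranks in the two replicates (chance level up to 0.065) followed by a retest with a 1.5-fold or larger significant decrease, p below 0.05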
# Calls: active = confirmed: knock-down lowers infection; inactive = not picked or not confirmed
# The deposit covers about 22,000 reagents; this is a random part of those that have a named target and a result. In the full data, 116 (0.52%) are marked active. 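Calls depend on retest data that are not deposited; infection was ranked per plate without normalising between plates; the unit of the infection score is not given.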 Raw values are not corrected between plates. A number with no mark means an inactive call. A plus sign joins genes that one reagent is predicted to hit. Not given: the amount of reagent, the time to read-out.
Gene,DRSC id,"infection score, replicate 1","infection score, replicate 2","cell count, replicate 1","cell count, replicate 2"
Ir56b (Ionotropic receptor 56b),DRSC06543,1.41,2.99,6616,6452
Ir56b (Ionotropic receptor 56b),DRSC28758,,5.03,348,676
laf (labial associated factor),DRSC12246,6.61,3.2,6292,6943
CG6805,DRSC07011,13.7,17.6,6173,6102
CG6805,DRSC29352,16.1,9,3524,5524
CG30275,DRSC04163,10.3,11.5,6595,6979
CG3224,DRSC18295,5.85,6.87,6569,6450
Mau2,DRSC15550,5.5,10.2,6894,6795
AkhR (Adipokinetic hormone receptor),DRSC03329,1.75,7.69,5781,5135
AkhR (Adipokinetic hormone receptor),DRSC28694,21,9.57,5645,3573
BBS5 (Bardet-Biedl syndrome 5),DRSC12168,5.23,21.4,6219,6388
BBS5 (Bardet-Biedl syndrome 5),DRSC27540,6.54,14.7,6610,6552
Cpr62Bb (Cuticular protein 62Bb),DRSC08404,4.99,1.31,6253,6202
Cpr62Bb (Cuticular protein 62Bb),DRSC27624,5.13,15.9,6706,6216
hebe,DRSC05192,0.84,2.11,6437,5174
hebe,DRSC06605,11.7,28.7,5854,5813
hebe,DRSC21614,4.58,16.6,5174,4190
hebe,DRSC24505,2.72,11.5,6805,6645
CG30184,DRSC22277,1.84,11.2,5650,5479
CG30184,DRSC29631,19.2,15.7,5660,4390
Kmn1 (kinetochore Mis12-Ndc80 network component 1),DRSC19666,5.81,30.9,5857,5586
Kmn1 (kinetochore Mis12-Ndc80 network component 1),DRSC27299,23,6.06,5636,6273
Doc1 (Dorsocross1),DRSC11146,3.19,15.8,5582,5754
Doc1 (Dorsocross1),DRSC25859,4.59,1.8,5751,5785
Gnpat (Glyceronephosphate O-acyltransferase),DRSC16960,2.23,0.49,1391,408
CycG (Cyclin G),DRSC14324,1.15,1.76,6454,6465
CycG (Cyclin G),DRSC23345,2.9,30.5,6735,6413
CG7080,DRSC16193,6.69,1.97,6485,6554
CG7080,DRSC27850,,21.2,409,5254
CG14736,DRSC14956,5.97,5.93,6596,6665
CG14736,DRSC23985,18.1,8.19,7081,6286
Wdr24 (WD repeat domain 24),DRSC14151,7.36,5.12,6236,6618
CG10332 (retired record) + IM18,DRSC04064,2.7,6.03,6824,6934
NELF-B,DRSC17734,9.48,7.59,791,6074
NELF-B,DRSC26242,11.9,8.55,5607,5868
SPH93 (Serine protease homolog 93),DRSC02978,6.44,4.57,6291,6627

4 of these entries, set out differently:
{"Gene":"AkhR (Adipokinetic hormone receptor)","DRSC id":"DRSC03329","infection score, replicate 1":1.75,"infection score, replicate 2":7.69,"cell count, replicate 1":5781,"cell count, replicate 2":5135}
{"Gene":"AkhR (Adipokinetic hormone receptor)","DRSC id":"DRSC28694","infection score, replicate 1":21,"infection score, replicate 2":9.57,"cell count, replicate 1":5645,"cell count, replicate 2":3573}
{"Gene":"BBS5 (Bardet-Biedl syndrome 5)","DRSC id":"DRSC12168","infection score, replicate 1":5.23,"infection score, replicate 2":21.4,"cell count, replicate 1":6219,"cell count, replicate 2":6388}
{"Gene":"BBS5 (Bardet-Biedl syndrome 5)","DRSC id":"DRSC27540","infection score, replicate 1":6.54,"infection score, replicate 2":14.7,"cell count, replicate 1":6610,"cell count, replicate 2":6552}

Continued.
Gene,DRSC id,"infection score, replicate 1","infection score, replicate 2","cell count, replicate 1","cell count, replicate 2"
CG4995,DRSC02801,4.13,4.42,6545,6272
CG3032,DRSC18266,9.22,25.7,1388,5312
CG3032,DRSC24426,1.78,2.56,6672,6331
RabX6,DRSC08223,3.47,3.46,5557,6123
Alp2 (Alkaline phosphatase 2),DRSC04354,25.2,18.6,5529,5967
Alp2 (Alkaline phosphatase 2),DRSC26474,7.33,2.37,5823,5526
ATP6AP2 (ATPase H+ transporting accessory protein 2),DRSC16420,1.64,1.08,5596,6946
CG32075,DRSC10622,2.62,3.36,6309,5855
CG32075,DRSC29881,23.7,2.31,5068,6137
CG3184,DRSC18289,17.6,5.78,2366,6873
CG7329,DRSC03046,4.7,3.92,6570,6640
CG7329,DRSC26137,3.19,1.2,6431,6004
ras (raspberry),DRSC18825,5.57,3.43,6540,6495
ras (raspberry),DRSC27137,2.55,7.23,6235,5716
Nrx-IV (Neurexin IV),DRSC11238,12.7,12.2,5986,6002
CG6553,DRSC07002,6.27,14.5,1995,6952
CG31681,DRSC00107,9.63,8.23,5806,6003
CG31681,DRSC25893,5.43,3.38,6505,5774
tplus3a + tplus3b,DRSC03687,2.47,0.93,6691,6326
dj (don juan),DRSC12625,4.81,12,6691,5501
dj (don juan),DRSC25525,1.12,0.52,6757,6521
Tsp39D (Tetraspanin 39D),DRSC03099,3.16,,696,383
